A mixed list of measured activities; the numbers were collected in NIAID ChemDB.

Common to all: whole-cell or culture tests; species: Human cytomegalovirus; endpoint: EC50

Lines come from different laboratories, so protocols vary. ECn is the concentration giving n% inhibition of infection, replication or growth.

{"SMILES": "COc1cccc(N2CCN(C3=Nc4c(F)cccc4[C@H](CC(=O)O)N3c3cc(C(F)(F)F)ccc3OC)CC2)c1", "method": "plaque count", "strain": "Clinical isolate 15", "value": "0.0029 µM"}
{"SMILES": "Nc1nc2c(ncn2COC(CO)CO)c(=O)[nH]1", "method": "ELISA", "strain": "RCL-1 (UL97 G594A UL54 S545L)", "cell line": "MRC-5", "value": "14.5 µM"}
{"SMILES": "CC(C)C(C)Nc1ccc(Oc2ccc(O)cc2)cc1", "method": "virus yield", "value": "12.4 µM"}
{"SMILES": "Nc1nc2c(ncn2CCCCO)c(=O)[nH]1", "method": "antigen", "strain": "AD169", "cell line": "HEL", "value": "50 µM"}
{"SMILES": "Cc1nc(N2CCCC[C@@H]2C)nc(-n2ccnc2)c1[N+](=O)[O-]", "value": "0.15 µM"}
{"SMILES": "Cc1cc(C)cc(Cn2c(=O)ccn(Cc3cccc(Cl)c3)c2=O)c1", "strain": "AD169", "value": ">140 µM"}
{"SMILES": "Nc1nc2c(ncn2[C@@H]2O[C@H](CO)[C@H]2CO)c(=O)[nH]1", "method": "plaque count / crystal violet", "strain": "AD169", "cell line": "HEL", "value": "0.062 µg/mL"}
{"SMILES": "Cc1cc(C)cc(Cn2c(=O)ccn(Cc3ccco3)c2=O)c1", "strain": "AD169", "value": ">64 µM"}
{"SMILES": "COc1ccc(Oc2ccc(NC3CCCCCC3)cc2)cc1", "method": "virus yield", "value": "30.5 µM"}
{"SMILES": "OC[C@H]1O[C@@H](n2c(Br)nc3cc(Cl)c(Cl)cc32)[C@H](O)[C@@H]1O", "method": "virus yield", "strain": "AD169", "cell line": "HFF", "value": "0.36 µM"}
{"SMILES": "Cc1nc(NC2Cc3c(F)ccc(F)c3C2)nc(-n2ccnc2)c1[N+](=O)[O-]", "value": "0.15 µM"}
{"SMILES": "Nc1ccn(C[C@@H](CO)OCP(=O)(O)O)c(=O)n1", "method": "flow cytometry", "strain": "AD169", "cell line": "HEL", "value": "0.72 µM"}
{"SMILES": "OC[C@H]1O[C@@H](n2c(Br)nc3cc(Cl)c(Cl)cc32)[C@H](O)[C@@H]1O", "method": "virus yield", "strain": "C4 (BDCRB-resistant)", "cell line": "HFF", "value": "<23 µM"}
{"SMILES": "Nc1nc2c(ncn2CC[C@@H](O)CO)c(=O)[nH]1", "method": "antigen", "strain": "9 isolates", "cell line": "HEL", "value": "220 µM"}
{"SMILES": "O[C@@H]1[C@H](O)CO[C@H]1n1c(Cl)nc2cc(Cl)c(Cl)cc21", "method": "virus yield", "strain": "TOWNE", "cell line": "HFF", "value": "<0.41 µM"}
{"SMILES": "COCCOCn1cc(C(N)=S)c2c(N)ncnc21", "method": "hybridisation", "strain": "TOWNE", "value": "1.3 µM"}
{"SMILES": "Nc1nc2c(ncn2COC(CO)CO)c(=O)[nH]1", "method": "virus yield", "strain": "R56", "value": "<2.9 µM"}
{"SMILES": "CC(C)Nc1ccc(Oc2ccc(O)cc2)cc1", "method": "virus yield", "value": "13.6 µM"}
{"SMILES": "CC(C)Nc1nc2cc(Cl)c(Cl)cc2n1[C@@H]1CO[C@H](CO)C1", "method": "hybridisation", "strain": "AD169", "cell line": "MRC-5", "value": "6 µM"}
{"SMILES": "CN(C)c1ccc(Oc2ccc(NC3CCCCCC3)cc2)cc1", "method": "virus yield", "value": "48 µM"}
{"SMILES": "Cc1nc(N2CCCC2C)nc(-n2ccnc2)c1[N+](=O)[O-]", "value": "0.35 µM"}
{"SMILES": "Cc1cc(C)cc(Cn2c(=O)cc(N3CCNCC3)n(CC#N)c2=O)c1", "strain": "AD169", "value": ">570 µM"}
{"SMILES": "COC[C@@H]1CCCN1c1nc(C)c([N+](=O)[O-])c(-n2ccnc2C)n1", "value": "0.15 µM"}
{"SMILES": "Nc1ccn(C[C@H]2COP(=O)(O)CO2)c(=O)n1", "method": "plaque count", "strain": "WILD TYPE", "cell line": "MRC-5", "value": "0.99 µM"}
{"SMILES": "Nc1ncnc2c1ncn2C=C1CC1CO", "method": "plaque count", "strain": "VR6189 (ganciclovir-susceptible)", "value": "1.8 µM"}
{"SMILES": "Cc1cc(C)cc(Cn2c(=S)ccn(Cc3ccccc3Cl)c2=O)c1", "strain": "AD169", "value": ">54 µM"}
{"SMILES": "COCC(C)Nc1nc(C)c([N+](=O)[O-])c(-n2ccnc2C)n1", "value": "0.9 µM"}
{"SMILES": "OC[C@H]1O[C@@H](n2c(Br)nc3cc(Cl)c(Cl)cc32)[C@H](O)[C@@H]1O", "method": "hybridisation", "strain": "AD169", "cell line": "MRC-5", "value": "0.5 µM"}
{"SMILES": "Nc1nc2c(ncn2COC(CO)CO)c(=O)[nH]1", "method": "virus yield", "strain": "TOWNE", "cell line": "HFF", "value": "<4 µM"}
{"SMILES": "CCc1nccn1-c1nc(NC2Cc3ccccc3C2)nc(C)c1[N+](=O)[O-]", "value": "0.8 µM"}
{"SMILES": "OC[C@@H]1C[C@H](n2c(Br)nc3cc(Cl)c(Cl)cc32)CO1", "method": "hybridisation", "strain": "AD169", "cell line": "MRC-5", "value": "14 µM"}
{"SMILES": "Nc1ccn(C[C@@H](CO)OCP(=O)(O)O)c(=O)n1", "method": "plaque count", "strain": "4760RECPOLA1-1-1 (foscarnet-resistant)", "cell line": "HFF", "value": "0.2 µg/mL"}
{"SMILES": "C[C@H](c1ccccc1)N(CC(=O)Nc1ccc(-c2csc(N)n2)cc1)C(=O)Cc1ccncc1", "method": "plaque count / crystal violet", "strain": "AD169", "cell line": "HS68", "value": "49 µM"}
{"SMILES": "O=C(NCc1ccc(Cl)cc1)c1c[nH]c2ccc(C#CCO)cc2c1=O", "method": "plaque count", "strain": "LYS", "value": "1.7 µM"}
{"SMILES": "CC(C)Nc1nc2cc(Cl)c(Cl)cc2n1[C@H]1O[C@@H](CO)[C@H](O)[C@@H]1O", "method": "hybridisation", "strain": "C8910", "cell line": "MRC-5", "value": "0.12 µM"}
{"SMILES": "CCCCCCCCCCCCCCCCOCCCOP(=O)(O)CO[C@H](CO)Cn1ccc(N)nc1=O", "method": "plaque count", "strain": "AD169", "cell line": "MRC-5", "value": "0.0009 µM"}
{"SMILES": "Cc1cc(C)cc(Cn2c(=S)ccn(Cc3ccc(Cl)cc3)c2=O)c1", "strain": "AD169", "value": ">54 µM"}
{"SMILES": "Nc1ccn(C[C@H]2COP(=O)(O)CO2)c(=O)n1", "method": "hybridisation", "strain": "AD169", "cell line": "HEL", "value": "0.1 µM"}
{"SMILES": "OC[C@@H]1O[C@@H](n2c(Cl)nc3cc(Cl)c(Cl)cc32)[C@H](O)[C@@H]1O", "method": "virus yield", "strain": "TOWNE", "cell line": "HFF", "value": "<5.8 µM"}
{"SMILES": "Nc1nc2c(ncn2[C@H]2C=C[C@@H](CO)[C@H](O)C2)c(=O)[nH]1", "strain": "U 9070", "value": "0.4 µg/mL"}
{"SMILES": "CCCCN(CC)C(=O)Nc1ccc(-c2csc(NOC(=O)OC(C)(C)C)n2)cc1", "method": "plaque count / crystal violet", "strain": "AD169", "cell line": "HS68", "value": "2 µM"}
{"SMILES": "Nc1nc2c(ncn2COC(CO)CO)c(=O)[nH]1", "method": "plaque count / crystal violet", "strain": "AD169", "cell line": "HEL", "value": "0.16 µg/mL"}
{"SMILES": "CCCCCCCCCCCCCCCCCCOCCOP(=O)(O)CO[C@H](CO)Cn1ccc(N)nc1=O", "method": "plaque count", "strain": "C8805/37-1-1 (drug-resistant mutant)", "cell line": "MRC-5", "value": "0.00095 µM"}
{"SMILES": "Nc1nc(-c2ccc(NC(=O)CN(CC3CCCCC3)C(=O)COc3ccccn3)cc2)cs1", "method": "plaque count / crystal violet", "strain": "AD169", "cell line": "HS68", "value": "20 µM"}
{"SMILES": "CC(C)Nc1nc2cc(Cl)c(Cl)cc2n1[C@@H]1CO[C@H](C)[C@H]1O", "method": "hybridisation", "strain": "AD169", "cell line": "MRC-5", "value": "10 µM"}
{"SMILES": "Nc1nc2c(ncn2COC(CO)CO)c(=O)[nH]1", "method": "virus yield", "strain": "TOWNE", "cell line": "HFF", "value": "<1.6 µM"}
{"SMILES": "Cc1nc(N2CCCC[C@H]2C)nc(-n2ccnc2)c1[N+](=O)[O-]", "value": "0.35 µM"}
{"SMILES": "Cc1ccccc1Cn1c(=O)ccn(CC#N)c1=O", "strain": "AD169", "value": "78 µM"}